The source of these data is patent publication US7544773 (dated 2009).

The target of the assay is Caf1M periplasmic chaperone (Yersinia pestis, UniProt P26926 24-258). As to the kind of experiment: IEF of periplasmic extracts, immunoblot with anti-Caf1M and anti-Caf1. (In general: In western blotting, separated proteins are transferred to a membrane and probed.)

B1: Caf1 subunit (capsular F1 antigen subunit) (other)
chain: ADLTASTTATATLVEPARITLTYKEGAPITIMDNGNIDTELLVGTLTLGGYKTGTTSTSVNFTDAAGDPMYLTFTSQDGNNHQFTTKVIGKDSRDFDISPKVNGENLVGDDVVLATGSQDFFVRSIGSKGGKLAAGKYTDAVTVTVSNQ
Take B1: the binding result is reported as “binds”.
